Consider 5 molecules from patent US4157396A, “Hydroxamic acid derivatives and medicaments for treatment of urolithiasis and pyelonephrosis comprising such derivatives” (Eisai Co., Ltd., priority 1976, dated 1979).

The data set is described as follows: Determination of the transfer rate into the urine and calculation of the index. The class given is in vivo, male rats of SD strain. As to conditions: calculated from I50 and mean transfer rate into the urine during 6 hours after administration, n = 6. How it is done: (ii) Determination of the transfer rate into the urine
Transfer rates into the urine of the examination compounds were determined according to the method of Kobashi et al [Refer to Biochemistry (Japan) vol. 44, No. 5, pp. 187-204 (1972) and Yakugaku Zasshi vol. 12, pp. 1564-1572 (1973)] by using the male rats of SD strain having the body weight of about 280 g, administering orally each 100 mg/Kg of the compounds, and measuring the urease inhibitory action in the excreted urine within a specified period of time.
(iii) Calculation of the index
The index was calculated from the resulting values of the above examinations (i) and (ii) according to the following equation: [formula] wherein n is chosen appropriately depending on the value of I50.
The value of the index is referred to as a standard of the urease inhibitory power of the administered examination compound in the urine.
It is seen that the larger the value of the index is, the more effectively the examination compounds transfer into the urine with a form having the urease inhibitory action. Results of the determination

Values joined by “and” are separate entries in the source; they are usually repeats but may differ in a detail not shown here. Equal values may be shown once.

As to `CC(=O)Nc1cccc(C(=O)NCC(=O)NO)c1` [Compound M, 2-(meta-acetylaminobenzamide)-acetohydroxamic acid], the Index is 7.5.

On to `O=C(CNC(=O)c1ccco1)NO` [Compound R, 2-(2-furoilamino)-acetohydroxamic acid], for which the Index is on record as 11.9.

In the case of `O=C(CNC(=O)c1ccc(Cl)cc1)NO` [Control compound I, 2-(para-chloro-benzamide)-acetohydroxamic acid, reference compound], the Index was 1.00. Also, the Index (listed as control compound I) was 1.0.

As to `COc1ccc(C(=O)NCC(=O)NO)cc1` [Compound A, 2-(para-methoxy-benzamide)-acetohydroxamic acid], the Index is 7.06 and 4.2.

`COc1cccc(C(=O)NCC(=O)NO)c1` [Compound B, 2-(meta-methoxy-benzamide)-acetohydroxamic acid]: the Index was 10.30 and 6.2.
